A mixed list of measured activities; the numbers were collected in NIAID ChemDB.

Shared fields: toxicity to cultured cells; cells: HFF; read-out: CC50

CCn is the concentration with n% toxicity to the cells.

compound	read by	result
C[CH2][Sn]([Cl])([Cl])[CH2]C		11 µg/mL
NC(=O)c1c(N)n(COC(CO)CO)c2ncnc(N)c12	visual reading	>100 µM
Nc1nc(F)nc2c1ncn2/C=C1/CC1CO		10 µM
NC(=O)c1c(N)n(COCCO)c2ncnc(N)c12	visual reading	>100 µM
OC[C@H]1O[C@@H](n2c(Br)nc(Cl)c2Cl)[C@H](O)[C@@H]1O		>100 µM
NC(=S)c1c(N)n(COC(CO)CO)c2ncnc(N)c12	visual reading	>100 µM
C[CH2][Sn]([Br])([Br])[CH2]C.c1cnc2c(c1)ccc1cccnc12		31 µg/mL
Nc1nc(Cl)nc2c1ncn2/C=C1\CC1CO		>100 µM
COC(=O)[C@H](C)NP(=O)(OC[C@H]1C/C1=C\n1cnc2c(=O)[nH]c(N)nc21)Oc1ccccc1		>211 µM
N#Cc1c(N)n(COC(CO)CO)c2ncnc(N)c12	visual reading	>100 µM
OC[C@H]1O[C@@H](n2cnc3cc(Cl)c(Cl)cc32)[C@H](O)[C@@H]1O		24 µM
COC(=O)C(C)NOP(OC[C@H]1C/C1=C/n1cnc2c(N)[nH]c(=O)nc21)Oc1ccccc1		>100 µM
OC[C@H]1O[C@@H](n2c(Cl)nc(Cl)c2Cl)[C@H](O)[C@H]1O		>100 µM
CCCCCCC[CH2][Sn]([Cl])([Cl])[Cl]		370 µg/mL
NC(=O)c1c(Br)n(COCCO)c2ncnc(N)c12	visual reading	100 µM
CCC[CH2][Sn+2][CH2]CCC		1.2 µg/mL
OC[C@H]1O[C@@H](n2c(Br)nc(Br)c2Br)[C@@H](O)[C@@H]1O		>100 µM
CCCC[CH2][Sn]([Cl])([Cl])[CH2]CCCC		<1 µg/mL
COC(=O)[C@H](C)NP(=O)(OCC1C/C1=C/n1cnc2c(N)ncnc21)Oc1ccccc1		4.3 µM
C[CH2][Sn]([Br])([Br])[CH2]C.c1ccc(-c2nc3ccccc3[nH]2)nc1		13 µg/mL
COC(=O)[C@H](C)NP(=O)(OC[C@H]1C/C1=C/n1cnc2c(N)nc(N)nc21)Oc1ccccc1		121 µM

A second listing of 2 rows from above:

compound | read by | result
COC(=O)[C@H](C)NP(=O)(OC[C@H]1C/C1=C\n1cnc2c(=O)[nH]c(N)nc21)Oc1ccccc1 |  | >211 µM
COC(=O)[C@H](C)NP(=O)(OC[C@H]1C/C1=C/n1cnc2c(N)nc(N)nc21)Oc1ccccc1 |  | 121 µM

Blank or dashed fields: not listed here. Conditions beyond the fields shown may differ between rows.